Measured values published in patent publication US10364226B2, “Pyridazinone compounds and uses thereof” (priority 2013, dated 2019).

Assays:
[1] = tested on: Influenza strain A549 A/WSN/33 (H1N1); experiment: Influenza Antiviral Assay; type: cell-based, Influenza A virus; conditions: read-out: % Inhibition; A549 or MDCK cells infected with A/WSN/33 (H1N1), 20 hours; neuraminidase fluorescence readout
EN PA = EN PA (Influenza A virus, UniProt P15659); experiment: EN PA FRET Inhibition Assay; type: biochemical; conditions: read-out: Potency; full length recombinant EN PA, FRET RNA probe cleavage

**Q.** With `CNC(=O)c1nn(CC2(n3cc(C)c4cccnc43)CCCC2)cc(OC(=O)[C@@H](NC(=O)OC(C)(C)C)C(C)C)c1=O` as the molecule, how does the EC50 [1] read?
**A.** Its EC50 is less than 20 µM.

**Q.** And the IC50 (EN PA)?
**A.** Its IC50 is less than 0.1 µM.
